From publication PMC9104152, “Phosphoproteomics Unravel HBV Triggered Rewiring of Host Phosphosignaling Events” (International Journal of Molecular Sciences, 2022) come the findings set out here.

This data set has as its system HepG2-NTCP cells. The data set is described as follows: TMT-based phosphoproteome profiling of HBV-infected vs mock HepG2-NTCP (HBV/mock ratio). On the set-up: species or system human. The settings on record: HBV-infected vs mock HepG2-NTCP, sheet Up-regulated.
[1] abbreviates: phosphosite abundance ratio of host protein, 7dpi.
[2] abbreviates: phosphosites of host proteins deregulated at 7dpi.

Values joined by “and” are separate entries in the source; they are usually repeats but may differ in a detail not shown here. Identical values can stand only once.

Regarding “O00264 1xPhospho [O00264 1xPhospho [S57(100)]]”, the HBV/mock under setting [1] is given as 1.735.

“O00264 1xPhospho [O00264 1xPhospho [S181(100)]]”: under setting [1], the HBV/mock stood at 1.467.

On to “O14646 2xPhospho [O14646 2xPhospho [S215(100); S216(100)]]”, for which, under setting [1], the HBV/mock is 1.37. The same measure, in the same setting: with O43166 1xPhospho [O43166 1xPhospho [S]] the figure was 1.315; with “O43823 1xPhospho [O43823 1xPhospho [S328(100)]]”, 1.353; with “O75376 1xPhospho [O75376 1xPhospho [S2120(100)]]”, 1.341. “O75691 1xPhospho [O75691 1xPhospho [S2601(100)]]”: under setting [2], the HBV/mock came out at 1.379. The same measure, in the same setting: with “O95071 1xPhospho [O95071 1xPhospho [S1549(99.7)]]” the figure was 1.402. Consider “O95602 1xPhospho [O95602 1xPhospho [Y/S]]”, for which the HBV/mock under setting [1] is 1.46.

With P01308, the HBV/mock under setting [1] was determined as 2.057. Take “P04114 1xPhospho [P04114 1xPhospho [S4048(100)]]”: under setting [1], the HBV/mock worked out at 6.399. On the same count and under the same terms, with “P04406 1xPhospho [P04406 1xPhospho [S/T]]” the figure was 1.4302; with “P05067 1xPhospho [P05067 1xPhospho [S441(100)]]”, 1.361; with “P08238 1xPhospho [P08238 1xPhospho [S226(100)]]”, 1.609 and 1.38. On the same count and under the same terms, with P13861 1xPhospho [P13861 1xPhospho [S]] the figure was 1.586 and 1.431; with “P17252 1xPhospho [P17252 1xPhospho [T/Y]]”, 1.712.

Consider “P28066 1xPhospho [P28066 1xPhospho [T/S]]”, for which, under setting [1], the HBV/mock came to 1.835.

Take “P41227 2xPhospho [P41227 2xPhospho [S205(100); S209(100)]]”: the HBV/mock under setting [1] was 1.373. Still for that read-out and setting: with “P42356 1xPhospho [P42356 1xPhospho [S/T]]” the figure was 1.303; with P43686, 1.3097. Same read-out and setting: with “P46100 1xPhospho [P46100 1xPhospho [S213(100)]]” the figure was 1.313; with “P46100 2xPhospho [S675(99.4); S677(99.4)]”, 1.381. On the same count and under the same terms, with “P48634 1xPhospho [P48634 1xPhospho [S1386(99.6)]]” the figure was 1.386; with P48643, 1.364 and 1.351. On to “P49327 1xPhospho [P49327 1xPhospho [S207(100)]]”, for which the HBV/mock under setting [1] was found to be 1.378. With “P49327 1xPhospho [P49327 1xPhospho [S1411(99.4)]]”, the HBV/mock under setting [1] is reported as 1.435. On the same count and under the same terms, next, “P49327 1xPhospho [P49327 1xPhospho [S/T/Y]]”: 1.421; “P49327 1xPhospho [P49327 1xPhospho [T2204(100)]]”: 1.711. On to “P49327 2xPhospho [S2198(100); T2204(100)]”, for which the HBV/mock under setting [1] was 1.622.

With “P51812 1xPhospho [P51812 1xPhospho [S415(100)]]”, the HBV/mock under setting [1] worked out at 5.685. The same measure, in the same setting: next, “P52701 1xPhospho [P52701 1xPhospho [S137(99.8)]]”: 1.441. In the case of “P52701 1xPhospho [P52701 1xPhospho [S227(100)]]”, under setting [1], the HBV/mock was 1.866.

Take “P52756 1xPhospho [P52756 1xPhospho [S59(100)]]”: the HBV/mock under setting [1] is on record as 1.382. As to “P55010 1xPhospho [P55010 1xPhospho [S229(99.7)]]”, the HBV/mock under setting [1] came to 1.357. The same measure, in the same setting: with “P55010 1xPhospho [P55010 1xPhospho [S/Y]]” the figure was 1.897; with “P57682 1xPhospho [P57682 1xPhospho [Y/S]]”, 1.333. Take “P60174 1xPhospho [P60174 1xPhospho [S58(100)]]”: the HBV/mock under setting [2] came out at 1.517. Turning to “P68363 1xPhospho [P68363 1xPhospho [S439(100)]]”, under setting [2], the HBV/mock is reported as 1.721.

For “P78527 1xPhospho [P78527 1xPhospho [S2612(98.3)]]”, the HBV/mock under setting [1] was 1.382.

Turning to “Q2KHR3 2xPhospho [T1341(100); S1348(100)]”, the HBV/mock under setting [1] was determined as 1.469.

Turning to “Q2PPJ7 2xPhospho [Q2PPJ7 2xPhospho [S820(99.8); S821(100)]]”, under setting [1], the HBV/mock was 1.3586.

In the case of “Q5SYE7 1xPhospho [Q5SYE7 1xPhospho [S328(100)]]”, under setting [1], the HBV/mock was 1.338.

As for “Q5T200 3xPhospho [S316(100); S325(99.4); T/S]”, the HBV/mock under setting [2] is given as 1.364. For “Q5UIP0 1xPhospho [Q5UIP0 1xPhospho [S2393(100)]]”, under setting [1], the HBV/mock is 1.446. The same measure, in the same setting: next, “Q5VTR2 1xPhospho [Q5VTR2 1xPhospho [S138(100)]]”: 1.402; “Q7Z5L9 3xPhospho [S455(100); S457(100); S460(100)]”: 1.3947. In the case of “Q7Z6Z7 1xPhospho [Q7Z6Z7 1xPhospho [S3919(100)]]”, the HBV/mock under setting [1] was 1.407.

Regarding “Q7Z6Z7 1xPhospho [Q7Z6Z7 1xPhospho [T/S]]”, the HBV/mock under setting [1] was 1.32. Regarding “Q7Z6Z7 2xPhospho [T3924(100); T3927(100)]”, the HBV/mock under setting [1] is on record as 1.978. With “Q8IWU5 1xPhospho [Q8IWU5 1xPhospho [S838(99.8)]]”, under setting [2], the HBV/mock stood at 1.316. Regarding “Q8NBP7 1xPhospho [Q8NBP7 1xPhospho [S688(100)]]”, the HBV/mock under setting [1] came to 8.489. On to “Q8NDI1 1xPhospho [Q8NDI1 1xPhospho [S171(99.6)]]”, for which, under setting [1], the HBV/mock is recorded as 1.416. On to “Q8NFA0 2xPhospho [S1361(99.5); S1372(100)]”, for which the HBV/mock under setting [2] came to 1.406. For “Q9BXY0 2xPhospho [Q9BXY0 2xPhospho [S229(100); S232(100)]]”, the HBV/mock under setting [1] is given as 1.4. As for “Q9C0C9 1xPhospho [Q9C0C9 1xPhospho [S515(100)]]”, the HBV/mock under setting [2] worked out at 1.711.

Turning to “Q9C0C9 2xPhospho [Q9C0C9 2xPhospho [S87(100); S89(100)]]”, the HBV/mock under setting [2] is 1.359. As to “Q9H4Z3 1xPhospho [Q9H4Z3 1xPhospho [S/T]]”, the HBV/mock under setting [1] was determined as 1.494.

For the substance “Q9HCK8 1xPhospho [Q9HCK8 1xPhospho [S/T]]”, the HBV/mock under setting [1] was 1.405.

In the case of Q9UBS3 1xPhospho [Q9UBS3 1xPhospho [S]], the HBV/mock under setting [1] is recorded as 5.911.

Consider “Q9UQ35 1xPhospho [Q9UQ35 1xPhospho [S954(100)]]”, for which the HBV/mock under setting [2] is on record as 1.349. As to “Q9Y4B6 1xPhospho [Q9Y4B6 1xPhospho [S/T/Y]]”, the HBV/mock under setting [1] amounted to 1.327. Take “Q9Y5B9 1xPhospho [Q9Y5B9 1xPhospho [S982(100)]]”: under setting [2], the HBV/mock is on record as 9.901. For the substance “Q9Y6D5 1xPhospho [Q9Y6D5 1xPhospho [S277(99.8)]]”, under setting [1], the HBV/mock is on record as 1.425. Take Q9Y6D5 2xPhospho [Q9Y6D5 2xPhospho [S]]: the HBV/mock under setting [1] is recorded as 1.424. Turning to “Q9Y6G9 1xPhospho [Q9Y6G9 1xPhospho [S207(100)]]”, the HBV/mock under setting [1] was 1.659 and 1.617. Same read-out and setting: with “Q9Y6G9 2xPhospho [T513(99.6); S516(99.2)]” the figure was 2.111; with “Q9Y6R4 1xPhospho [Q9Y6R4 1xPhospho [S431(100)]]”, 1.335. Same read-out and setting: next, Q27J81 2xPhospho [T20(98.7): 1.602; “Q58FF8 1xPhospho [Q58FF8 1xPhospho [S177(100)]]”: 1.388. Take “Q70CQ2 1xPhospho [Q70CQ2 1xPhospho [S2488(99.3)]]”: under setting [2], the HBV/mock stood at 1.556. The same measure, in the same setting: next, “Q96JG6 2xPhospho [S559(99.7); S561(99.7)]”: 1.314. For the substance “Q96QB1 1xPhospho [Q96QB1 1xPhospho [S566(100)]]”, under setting [1], the HBV/mock was 1.303.

For the substance “Q96QB1 2xPhospho [Q96QB1 2xPhospho [S523(100); S526(100)]]”, the HBV/mock under setting [1] was determined as 1.333. Still for that read-out and setting: with “Q02952 1xPhospho [Q02952 1xPhospho [S483(100)]]” the figure was 1.339; with “Q12789 1xPhospho [Q12789 1xPhospho [S1611(100)]]”, 1.408.

As for “Q13107 2xPhospho [Q13107 2xPhospho [S675(99.6); S680(100)]]”, the HBV/mock under setting [2] is 1.452.

Regarding “Q13144 1xPhospho [Q13144 1xPhospho [S544(100)]]”, the HBV/mock under setting [1] was determined as 1.374. Same read-out and setting: with “Q13283 2xPhospho [Q13283 2xPhospho [S/T]]” the figure was 1.42; with “Q13547 2xPhospho [Q13547 2xPhospho [S421(100); S423(100)]]”, 1.512; with “Q13576 1xPhospho [Q13576 1xPhospho [S16(100)]]”, 1.714. With “Q14568 1xPhospho [Q14568 1xPhospho [S263(100)]]”, the HBV/mock under setting [1] is on record as 8.103. For “Q16513 1xPhospho [Q16513 1xPhospho [T/S/Y]]”, the HBV/mock under setting [1] was found to be 4.943. Take “Q16659 1xPhospho [Q16659 1xPhospho [S189(100)]]”: under setting [1], the HBV/mock is 1.36. Regarding Q92614 1xPhospho [Q92614 1xPhospho [S]], the HBV/mock under setting [1] is 1.344. For “Q93008 1xPhospho [Q93008 1xPhospho [S1600(100)]]”, the HBV/mock under setting [2] was found to be 1.405.

Regarding “Q93008 2xPhospho [S1593(99.7); S1600(100)]”, the HBV/mock under setting [2] worked out at 1.301.

As for “Q99638 1xPhospho [Q99638 1xPhospho [S328(100)]]”, the HBV/mock under setting [1] is recorded as 1.667.
